The results in this text go back to US20250101137A1 (TRUSTEES OF TUFTS COLLEGE, published 2025).

The target of the experiment is Botulinum neurotoxin serotype B (BoNT/B) holotoxin (Clostridium botulinum, UniProt P10844). Put plainly: SPR; immobilised form of BoNT/B not stated. In general terms: Surface plasmon resonance follows binding to a sensor surface in real time, without labels.

B1: ciB-A11/B5 VHH heterodimer (bispecific antibody)
chain: GGGGLVQPGGALRLSCAASVFGMDYYYIGWVRQAPGKEREGVSCISNIGRTHYADSVKGRFTISRDNAKNTVYLQMNSLKPEDTAVYYCAAAPLVGNYCPASYEYESWGQGTQVTVSSAHHSEDPSGGGGSGGGGSGGGGSSGGGLVQPGGSLRLSCAASGQSLDNYIIGWFRQAPGKEREGVSCIDRTGTVTHYADSVKGRFTISTDNVKNTVYLEMNDLKPEDTATYFCAAERRWGVVSVCVISDYYFDSWGQGTQVTVSSAHHSEDPS
Molecule B1 registered a Kd of 5.3 nM.

One may read the Kd as the equilibrium constant for the complex coming apart.
